A mixed list of measured activities; the numbers were collected in NIAID ChemDB.

Common to all: growth or infection tests; species: Rhinovirus; endpoint: EC50

Conditions beyond the fields shown may differ between rows. ECn is the concentration giving n% inhibition of infection, replication or growth.

| structure | read by | strain or isolate | cell line | result |
|---|---|---|---|---|
| CSc1nsc(-c2ccc(OCCCOc3ccccc3)cc2)c1C#N | cytopathic effect | Serotype 89 (group B) | HELA-OHIO | 2.5 µM |
| Fc1cccc(Cn2cnc3c(Nc4cccc(F)c4)nc(C(F)(F)F)nc32)c1 | plaque count | Serotype 50 | M-HELA | 3.8 µM |
| CSc1nsc(-c2ccccc2)c1C#N | cytopathic effect | Serotype 45 (group A) | HELA-OHIO | >80 µM |
| CSc1nsc(-c2ccc(OCCOc3ccc([N+](=O)[O-])cc3)cc2)c1C#N | cytopathic effect | Serotype 70 (group A) | HELA-OHIO | >2 µM |
| Cc1cc(Cn2cnc3c(N(C)C)nc(C(F)(F)F)nc32)ccc1Cl | plaque count | Serotype 13 | M-HELA | >8 µM |
| CSc1nsc(-c2ccc(OS(=O)(=O)c3ccc(C)cc3)cc2)c1C#N | cytopathic effect | Serotype 63 (group B) | HELA-OHIO | >25 µM |
| CSc1nsc(-c2ccc(OCCCCOc3ccc(C#N)cc3)cc2)c1C#N | cytopathic effect | Serotype 89 (group B) | HELA-OHIO | >2 µM |
| CN(C)c1nc(C(F)(F)F)nc2c1ncn2Cc1ccccc1Cl | plaque count | Serotype 19 | M-HELA | >8 µM |
| CSc1nsc(-c2ccc(OCCCOc3ccc(C#N)cc3)cc2)c1C#N | cytopathic effect | Serotype 63 (group B) | HELA-OHIO | >2 µM |
| Cc1cc(CCCCCOc2c(Cl)cc(C3=NCCO3)cc2Cl)on1 | plaque count | TYPE 11 | HeLa | 0.017 µg/mL |
| CCOC(=O)c1ccc(OCCC2CCN(c3ccc(C)nn3)CC2)cc1 | neutral red | 11757 (ICAM-1 receptor group 16) | KB | 0.016 µM |
| CSc1nsc(-c2ccc(O)cc2)c1C#N | cytopathic effect | Serotype 42 (group A) | HELA-OHIO | >10 µM |
| Cc1ccc(Cn2cnc3c(N(C)C)nc(C(F)(F)F)nc32)cc1C | plaque count | TYPE 1B | M-HELA | 0.17 µM |
| CN(C)c1ccc(Cn2cnc3c(Nc4cccc(F)c4)nc(C(F)(F)F)nc32)cc1 | plaque count | Serotype 1B | M-HELA | 76 µM |
| CN(C)c1nc(C(F)(F)F)nc2c1ncn2Cc1ccc(Cl)c(N)c1 | plaque count | Serotype 30 | M-HELA | >8 µM |
| CCOC(=O)/C=C/[C@H](C[C@@H]1CCNC1=O)NC(=O)[C@@H](CC(=O)[C@@H](NC(=O)c1cc(C)on1)C(C)C)Cc1ccc(F)cc1 | cytopathic effect / visual reading | Isolate 35 | OHIO HELA-I | <0.01 µg/mL |
| COc1ccc(Cn2cnc3c(N(C)C)nc(C(F)(F)F)nc32)cc1C | plaque count | Serotype 18 | M-HELA | >8 µM |
| CCOC(=O)c1ccc(OCCCCOc2ccc(-c3snc(SC)c3C#N)cc2)cc1 | cytopathic effect | Serotype 39 (group B) | HELA-OHIO | >2 µM |
| CN(C)c1nc(C(F)(F)F)nc2c1ncn2Cc1cccc(F)c1 | plaque count | Serotype 8 | M-HELA | >8 µM |
| CSc1nsc(-c2ccc(OCCCOc3ccc([N+](=O)[O-])cc3)cc2)c1C#N | cytopathic effect | Serotype 9 (group B) | HELA-OHIO | >1 µM |